Results as given in article PMC5640672, “Molecular mechanism of synergy between the antimicrobial peptides PGLa and magainin 2” (Scientific Reports, 2017).
Values joined by “and” are separate entries in the source; they are usually repeats but may differ in a detail not shown here. Equal entries are not always repeated.

Assay: Solid-state 15N-NMR of peptide orientation in oriented lipid bilayers
Details: for 15N-NMR chemical shift of the 15N-Ala10-labeled peptide + MAG2-WT: 1:1 mixture with unlabeled MAG2-WT; for 15N-NMR chemical shift of the 15N-Ala10-labeled peptide alone: P/L 1:50, 35 °C, about 90 ppm = surface, about 130 ppm = tilted, about 200 ppm = inserted
[1] = oriented DMPC/DMPG (3:1) bilayers, P/L 1:50 each, 35 °C, signal above 175 ppm = synergy
[2] = oriented DMPC/DMPG (3:1) bilayers

Substance	15N-NMR chemical shift of the 15N-Ala10-labeled peptide + MAG2-WT [1]	15N-NMR chemical shift of the 15N-Ala10-labeled peptide alone [2]	also measured
GIGKFLHSAKKFGKAFVGKIMNS-OH (C-terminal free acid) [MAG2-E19K, MAG2 charge mutant E19K]			15N-NMR chemical shift of PGLa-15N-A10 in 1:1 mixture with the listed MAG2 peptide [1]: ~200 ppm and 191 ppm; 15N-NMR chemical shift of PGLa-K19E-15N-A10 in 1:1 mixture with the listed MAG2 peptide [1]: 200 ppm
GMASKAAAIAGKIAKVALKAL-NH2 (C-terminal amide; 15N-labeled Ala10) [PtM-G7A, PGLa single mutant G7A]	138 ppm	134 ppm	
GMASKAAAIAGKIGKVALKAL-NH2 (C-terminal amide; 15N-Ala10) [PGLa-GS1, PGLa glycine-shift mutant with GxxG motif]	118 ppm	122 ppm	
GMASKAGAIA IKIAKVALKAL-NH2 [PGLa-G11I, PGLa glycine mutant G11I]	154 ppm	143 ppm	
GMASKAGAIAGKIAKIAGKIA-NH2 [PtM-c1, PGLa to MSI-103 mutant, segment C replaced]	215 ppm	119 ppm	
GMASKAGAIAGKIAKVALEAL-NH2 [PGLa-K19E-^15N-A10] (C-terminal amide; 15N-Ala10) [PGLa charge mutant K19E labeled with 15N at Ala10]		165 ppm	
GMASKAGAIAGKIAKVALEAL-NH2 [PGLa-K19E] (C-terminal amide) [PGLa charge mutant K19E]		around 160 ppm	
GMASKAGAIAGKIAKVALKAL-NH2 [PGLa-WT, PGLa wild type antimicrobial peptide from Xenopus laevis skin, 15N-labeled at Ala10, reference compound]	around 200 ppm	around 130 ppm	15N-NMR chemical shift of the 15N-Ala10-labeled peptide alone (oriented DMPC/DMPG (3:1) bilayers, listed as PGLa-^15N-A10): 133 ppm
GMASKAGKIAGKIAKVALKAL-NH2 (C-terminal amide; 15N-labeled Ala10) [PtM-A8K, PGLa single mutant A8K]	193 ppm	143 ppm	
GMASKAIAG A IKGAKVALKAL-NH2 [PGLa-GS2, PGLa glycine-shift mutant, GxxxG on opposite helix face]	80 ppm	72 ppm	15N-NMR peak of peptides that do not engage in synergy (DMPC/DMPG, P/L 1:50, presence of MAG2 not given): 80 ppm
GMASKIAKIAGKIAKVALKAL-NH2 [PtM-a3, PGLa to MSI-103 mutant, three amino acids converted]	160 ppm	159 ppm	
GMASKIGAIAGKIAKVALKAL-NH2 (C-terminal amide; 15N-Ala10) [PtM-A6I, PGLa single mutant A6I]	194 ppm	135 ppm	
KIAGKAAKIAGKIAKIAGKIA-NH2 [MtP-I6A, MSI-103 to PGLa single mutant I6A]	124 ppm	121 ppm	
KIAGKAGAIAGKIAKIAGKIA-NH2 [MtP-a3, MSI-103 triple mutant I6A, A7G, K8A]	206 ppm	125 ppm	
KIAGKAGAIAGKIAKIALKIA-NH2 (C-terminal amide; 15N-Ala10) [MtP-a4, MSI-103 mutant with MtP-A3 mutations plus G18L]	188 ppm	163 ppm	
KIAGKAGAIAGKIAKVALKAL-NH2 [PtM-a2, PGLa to MSI-103 mutant, three amino acids converted]	191 ppm	167 ppm	
KIAGKIAAIAGKIAKIAGKIA-NH2 [MtP-K8A, MSI-103 to PGLa single mutant K8A]	96 ppm	106 ppm	
KIAGKIAKIAGKIAKIAGKIA-NH2 [MSI-103, designer-made AMP ([KIAGKIA]3-NH2) derived from PGLa, reference compound]	128 ppm	144 ppm	
KIAGKIAKIAGKIAKVALKAL-NH2 [PtM-a1, PGLa to MSI-103 mutant, segment A replaced]	165 ppm	152 ppm	
KIAGKIGKIAGKIAKIAGKIA-NH2 [MtP-A7G, MSI-103 to PGLa single mutant A7G]	95 ppm	105 ppm	
KIAGKIGKIAGKIAKIALKIA-NH2 (C-terminal amide; 15N-Ala10) [MtP-A7G-G18L, MSI-103 double mutant A7G, G18L]	190 ppm	159 ppm	
